Anti-infective test results gathered from many reports (values: NIAID ChemDB through PubChem).

All rows: target-level tests

a–b is a range or a potency band. Percent inhibition refers to the dose given; in toxicity tests it is the harm to the cells. ICn is the concentration giving n% inhibition. Conditions beyond the fields shown may differ between rows.

{"SMILES": "O=c1cc(-c2ccc(O)c(O)c2)oc2cc(O)ccc12", "tested at": "20 µM", "protein": "Replicase complex", "method": "SYBR Green", "strain": "J4", "measure": "inhibition", "species": "Hepatitis C virus", "value": "35.4%"}
{"SMILES": "CN1CCNCCC1c1cc(C(=O)Nc2ccc3[nH]ncc3c2)c(F)cc1F", "tested at": "0.01 µg/mL", "protein": "Reverse transcriptase", "measure": "inhibition", "species": "Hepatitis B virus", "value": "40%"}
{"SMILES": "COc1ccccc1COC(=O)Nc1cscc1-c1nc(C(=O)O)c(O)c(=O)[nH]1", "protein": "HCV polymerase", "measure": "IC50", "species": "Hepatitis C virus", "value": "<25 µM"}
{"SMILES": "O=C(Nc1ccc2cn[nH]c2c1)c1cc(N2CCN(CCO)CC2)c(F)cc1F", "protein": "Reverse transcriptase", "measure": "IC50", "species": "Hepatitis B virus", "value": "0.1 µg/mL"}
{"SMILES": "O=C(Nc1cccc(-c2nc(C(=O)O)c(O)c(=O)[nH]2)c1)c1cccs1", "protein": "HCV polymerase", "measure": "IC50", "species": "Hepatitis C virus", "value": "<100 µM"}
{"SMILES": "CCCC(=O)N(C)c1cc(-c2ccccc2)sc1C(=O)O", "protein": "NS3 ATPase", "measure": "IC50", "species": "Hepatitis C virus", "value": "5–20 µM"}
{"SMILES": "O=C(O)[C@H](Cc1ccccc1)N(Cc1cccc(F)c1)C(=O)c1ccc(Cl)cc1Cl", "protein": "RNA-dependent RNA polymerase", "measure": "IC50", "species": "Hepatitis C virus", "value": "<5 µM"}
{"SMILES": "O=C(Nc1ccsc1-c1nc(C(=O)O)c(O)c(=O)[nH]1)c1cc(F)cc(F)c1", "protein": "HCV polymerase", "measure": "IC50", "species": "Hepatitis C virus", "value": "<25 µM"}
{"SMILES": "O=c1c(O)c(-c2ccccc2)oc2cc(O)ccc12", "tested at": "20 µM", "protein": "Replicase complex", "method": "SYBR Green", "strain": "J4", "measure": "inhibition", "species": "Hepatitis C virus", "value": "71.3%"}
{"SMILES": "O=C(Nc1ccsc1-c1nc(C(=O)O)c(O)c(=O)[nH]1)OCCc1ccc(Cl)cc1Cl", "protein": "HCV polymerase", "measure": "IC50", "species": "Hepatitis C virus", "value": "<25 µM"}
{"SMILES": "CC(C)C[C@H](NC(=O)[C@H](CCC(=O)O)NC(=O)[C@@H](N)CC(=O)O)C(=O)N[C@H](C(=O)N[C@@H](CC1CCCCC1)C(=O)N[C@@H](CS)C(=O)O)C(C)C", "protein": "NS3 protease", "measure": "IC50", "species": "Hepatitis C virus", "value": "0.08 µM"}
{"SMILES": "O=C1NC(=S)S/C1=C/c1ccc(-c2cccc(Cl)c2Cl)o1", "protein": "NS5B polymerase", "measure": "IC50", "species": "Hepatitis C virus", "value": "≤30 µM"}
{"SMILES": "C=CCN(C(=O)Cc1ccc(F)cc1Cl)c1cc(-c2ccccc2)sc1C(=O)O", "protein": "NS3 ATPase", "measure": "IC50", "species": "Hepatitis C virus", "value": "5–20 µM"}
{"SMILES": "Cc1cccc(COC(=O)Nc2ccsc2-c2nc(C(=O)O)c(O)c(=O)[nH]2)c1", "protein": "HCV polymerase", "measure": "IC50", "species": "Hepatitis C virus", "value": "<25 µM"}
{"SMILES": "CN(C(=O)CCC1CCCC1)c1cc(-c2ccccc2)sc1C(=O)O", "protein": "NS3 ATPase", "measure": "IC50", "species": "Hepatitis C virus", "value": "<5 µM"}
{"SMILES": "O=C(Nc1ccc2[nH]ncc2c1)c1cc(C2CCNCCN2)c(F)cc1F", "protein": "Reverse transcriptase", "measure": "IC50", "species": "Hepatitis B virus", "value": "0.1–1 µg/mL"}
{"SMILES": "C=C[C@@H]1C[C@]1(NC(=O)[C@@H]1C[C@@H](Oc2nccc3ccc(Br)cc23)CN1C(C)=O)C(=O)NS(=O)(=O)C1CC1", "protein": "Nonstructural protein 3/4A", "method": "FRET", "strain": "1b D168A", "measure": "IC50", "species": "Hepatitis C virus", "value": ">3 µM"}
{"SMILES": "CC[C@H](NC(=O)[C@H](CCC(=O)O)NC(=O)[C@H](CCC(=O)O)NC(=O)[C@H](CCSC)NC(=O)[C@H](CCC(=O)O)NC(=O)[C@@H](N)CC(=O)O)C(=O)O", "protein": "NS3 protease", "measure": "IC50", "species": "Hepatitis C virus", "value": "5.8 µM"}
{"SMILES": "Cc1ccccc1C(=O)Nc1cc(-c2ccccc2)sc1C(=O)O", "protein": "NS3 ATPase", "measure": "IC50", "species": "Hepatitis C virus", "value": "5–20 µM"}
{"SMILES": "O=C(Nc1ccc2[nH]ncc2c1)c1cc(N2CCC(O)CC2)c(F)cc1F", "tested at": "1 µg/mL", "protein": "Nonstructural protein 5B", "measure": "inhibition", "species": "Hepatitis C virus", "value": "63%"}
{"SMILES": "O=C(O)c1sc(-c2ccccc2)cc1N(Cc1ccc([N+](=O)[O-])cc1)C(=O)C1CC1", "protein": "NS3 ATPase", "measure": "IC50", "species": "Hepatitis C virus", "value": "5–20 µM"}
{"SMILES": "CN1CCN(c2cc(C(=O)Nc3ccc4cn[nH]c4c3)c(F)cc2F)CC1", "protein": "Reverse transcriptase", "measure": "IC50", "species": "Hepatitis B virus", "value": "0.1–1 µg/mL"}
{"SMILES": "CC(C)[C@H](NC(=O)[C@H](CCC(=O)O)NC(=O)[C@@H](N)CC(=O)O)C(=O)N[C@H](C(=O)N[C@@H](CS)C(=O)N[C@@H](CS)C(=O)O)C(C)C", "protein": "NS3 protease", "measure": "IC50", "species": "Hepatitis C virus", "value": "2.1 µM"}
{"SMILES": "C=Cc1cc(Cl)ccc1C(=O)N(Cc1cccc(Br)c1)[C@@H](Cc1ccccc1)C(=O)O", "protein": "RNA-dependent RNA polymerase", "measure": "IC50", "species": "Hepatitis C virus", "value": "<5 µM"}
{"SMILES": "C=CCCC(=O)N(C)c1cc(-c2ccccc2)sc1C(=O)O", "protein": "NS3 ATPase", "measure": "IC50", "species": "Hepatitis C virus", "value": "5–20 µM"}
{"SMILES": "COc1cc(OC)c(C(=O)Nc2ccsc2-c2nc(C(=O)O)c(O)c(=O)[nH]2)cc1OC", "protein": "HCV polymerase", "measure": "IC50", "species": "Hepatitis C virus", "value": "<25 µM"}
{"SMILES": "CCN1C(=O)/C(=C\\c2ccc(Cl)cc2)SC1=S", "protein": "NS5B polymerase", "measure": "IC50", "species": "Hepatitis C virus", "value": ">30 µM"}
{"SMILES": "O=C(O)C(Cc1ccccc1)N(Cc1cccc(-c2cc3ccccc3o2)c1)C(=O)c1ccc(Cl)cc1Cl", "protein": "RNA-dependent RNA polymerase", "measure": "IC50", "species": "Hepatitis C virus", "value": "5–20 µM"}
{"SMILES": "O=C1/C(=C\\c2ccc(F)c(F)c2F)SC(=S)N1NS(=O)(=O)c1ccccc1", "protein": "NS5B polymerase", "measure": "IC50", "species": "Hepatitis C virus", "value": "≤30 µM"}
{"SMILES": "CCc1cc(Cl)ccc1C(=O)N(Cc1cccc(Br)c1)[C@@H](Cc1ccccc1)C(=O)O", "protein": "RNA-dependent RNA polymerase", "measure": "IC50", "species": "Hepatitis C virus", "value": "<5 µM"}
{"SMILES": "O=C1/C(=C\\c2ccc([N+](=O)[O-])c(O)c2)SC(=S)N1NS(=O)(=O)c1ccccc1", "protein": "NS5B polymerase", "measure": "IC50", "species": "Hepatitis C virus", "value": "≤30 µM"}
{"SMILES": "CSCC[C@H](NC(=O)[C@H](CCC(=O)O)NC(=O)[C@@H](N)CC(=O)O)C(=O)N[C@@H](CCC(=O)O)C(=O)N[C@@H](CCC(=O)O)C(=O)N[C@@H](CS)C(=O)O", "protein": "NS3 protease", "measure": "IC50", "species": "Hepatitis C virus", "value": "1 µM"}
{"SMILES": "O=C(Nc1cccc(-c2nc(C(=O)O)c(O)c(=O)[nH]2)c1)Nc1cccc2ccccc12", "protein": "HCV polymerase", "measure": "IC50", "species": "Hepatitis C virus", "value": "<100 µM"}
{"SMILES": "CC(C)(C)OC(=O)N1CCCC(N(C(=O)c2ccc(Cl)cc2Cl)c2cc(-c3ccccc3)sc2C(=O)O)CC1", "protein": "NS3 ATPase", "measure": "IC50", "species": "Hepatitis C virus", "value": "<5 µM"}
{"SMILES": "O=c1c(O)c(-c2cc(O)c(O)c(O)c2)oc2cc(O)cc(O)c12", "tested at": "20 µM", "protein": "Replicase complex", "method": "SYBR Green", "strain": "J4", "measure": "inhibition", "species": "Hepatitis C virus", "value": "79.2%"}
{"SMILES": "CC(C)N(C(=O)[C@H]1CC[C@H](C)C[C@H]1O)c1cc(-c2ccccc2)sc1C(=O)O", "protein": "NS3 ATPase", "measure": "IC50", "species": "Hepatitis C virus", "value": "<5 µM"}
{"SMILES": "CC[C@H](NC(=O)[C@@H](NC(=O)[C@@H](NC(=O)[C@H](CC(=O)O)NC(=O)[C@@H](N)CCC(=O)O)C(C)C)C(C)C)C(=O)N[C@@H](CS)C(=O)O", "protein": "NS3 protease", "measure": "IC50", "species": "Hepatitis C virus", "value": "2.8 µM"}
{"SMILES": "O=C(O)c1sc(-c2ccccc2)cc1NS(=O)(=O)c1ccccn1", "protein": "NS3 ATPase", "measure": "IC50", "species": "Hepatitis C virus", "value": ">20 µM"}
{"SMILES": "O=C1/C(=C\\c2ccc([N+](=O)[O-])cc2)SC(=S)N1NS(=O)(=O)c1ccccc1", "protein": "NS5B polymerase", "measure": "IC50", "species": "Hepatitis C virus", "value": "≤30 µM"}
{"SMILES": "COc1ccccc1CCOC(=O)Nc1ccsc1-c1nc(C(=O)O)c(O)c(=O)[nH]1", "protein": "HCV polymerase", "measure": "IC50", "species": "Hepatitis C virus", "value": "<25 µM"}
{"SMILES": "O=C(Nc1ccc2[nH]ncc2c1)c1cc(N2CCN(CCO)CC2)c(F)cc1F", "tested at": "0.1 µg/mL", "protein": "Reverse transcriptase", "measure": "inhibition", "species": "Hepatitis B virus", "value": "30%"}
{"SMILES": "N[C@@H](CC(=O)O)C(=O)N[C@@H](CCC(=O)O)C(=O)N[C@@H](Cc1ccccc1)C(=O)N[C@@H](CCC(=O)O)C(=O)N[C@@H](CC1CCCCC1)C(=O)N[C@@H](CS)C(=O)O", "protein": "NS3 protease", "measure": "IC50", "species": "Hepatitis C virus", "value": "0.42 µM"}
{"SMILES": "O=C1c2ccc(O)cc2O[C@H](c2cc(O)c(O)c(O)c2)[C@H]1O", "tested at": "20 µM", "protein": "Replicase complex", "method": "SYBR Green", "strain": "J4", "measure": "inhibition", "species": "Hepatitis C virus", "value": "11%"}
{"SMILES": "O=C(Nc1ccsc1-c1nc(C(=O)O)c(O)c(=O)[nH]1)OCc1cccc(OCc2ccccc2)c1", "protein": "HCV polymerase", "measure": "IC50", "species": "Hepatitis C virus", "value": "<25 µM"}
{"SMILES": "O=C(Nc1ccc2cn[nH]c2c1)c1cc(NCc2ccccn2)c(F)cc1F", "tested at": "1 µg/mL", "protein": "Nonstructural protein 5B", "measure": "inhibition", "species": "Hepatitis C virus", "value": "50%"}

The last 3 rows once more:

{"SMILES": "O=C1c2ccc(O)cc2O[C@H](c2cc(O)c(O)c(O)c2)[C@H]1O", "tested at": "20 µM", "protein": "Replicase complex", "method": "SYBR Green", "strain": "J4", "measure": "inhibition", "species": "Hepatitis C virus", "value": "11%"}
{"SMILES": "O=C(Nc1ccsc1-c1nc(C(=O)O)c(O)c(=O)[nH]1)OCc1cccc(OCc2ccccc2)c1", "protein": "HCV polymerase", "measure": "IC50", "species": "Hepatitis C virus", "value": "<25 µM"}
{"SMILES": "O=C(Nc1ccc2cn[nH]c2c1)c1cc(NCc2ccccn2)c(F)cc1F", "tested at": "1 µg/mL", "protein": "Nonstructural protein 5B", "measure": "inhibition", "species": "Hepatitis C virus", "value": "50%"}